Measured values from several laboratories, pooled; numbers as filed in NIAID ChemDB.

Common to all: toxicity to cultured cells; cells: C8166; read-out: CC50

Blank or dashed fields: not listed here. CCn: concentration that lowers growth or viability of the cells by n%. Conditions beyond the fields shown may differ between rows.

structure,method,value
CC(=O)N(/C=C/c1ccccc1Br)Cc1cc(F)cc(F)c1,MTT,116 µM
C[C@@H]1O[C@@H](OC[C@H]2O[C@@H](Oc3c(-c4ccc(OS(=O)(=O)O)c(OS(=O)(=O)O)c4)oc4cc(OS(=O)(=O)O)cc(OS(=O)(=O)O)c4c3=O)[C@H](OS(=O)(=O)O)[C@@H](OS(=O)(=O)O)[C@@H]2OS(=O)(=O)O)[C@H](OS(=O)(=O)O)[C@H](OS(=O)(=O)O)[C@H]1OS(=O)(=O)O,-,1295 µM
Cc1cn([C@H]2C[C@H](N=[N+]=[N-])[C@@H](COP(=O)(Oc3ccc([N+](=O)[O-])cc3)Oc3ccc([N+](=O)[O-])cc3)O2)c(=O)[nH]c1=O,-,40 µM
NC(=O)c1nn([C@@H]2O[C@H](CO)[C@@H](O)[C@H]2O)cc1Br,-,4 µM
C[C@@H]1O[C@@H](Oc2c(-c3cc(O)c(O)c(O)c3)oc3cc(O)cc(O)c3c2=O)[C@H](O)[C@H](O)[C@H]1O,-,>200 µg/mL
CC(=O)N(/C=C/c1ccccc1Br)C(C)=O,MTT,85 µM
O=C(NCc1ccc(F)cc1)c1nc(N2CCCCS2(=O)=O)c2cccnc2c1O,resazurin,3.1 µM
CCC(CC)NC(=O)C[C@@H](C(=O)NC[C@@H](O)[C@H](Cc1ccccc1)NC(=O)[C@@H](NC(=O)c1cnc2ccccc2n1)C(C)O)C(C)(C)C,-,>1 µM
C=C(C)[C@@]1(O)[C@H](O)[C@@H]2[C@@H]3O[C@]3(CO)[C@@H](O)[C@]3(O)C(=O)C(C)=C[C@H]3[C@@]2(O)[C@H](C)[C@H]1OC(C)=O,MTT,>200 µM
O=c1c2cccn2c2cccc(F)c2n1CCNC(=S)Nc1ccc(Br)cn1,-,200 µM
NS(=O)(=O)c1ccc(NC(=O)COc2ccc(Cl)cc2NS(=O)(=O)c2ccc([N+](=O)[O-])cc2)cc1,MTT,179 µM
COc1ccc(C(=O)CC2(O)C(=O)Nc3ccc(Cl)cc32)cc1OC,MTT,>400 µM
C=C(C)[C@]12C[C@@H](C)[C@@]34OC(CCCCCCCCCCCCCCC)(O[C@@H]1[C@@H]3[C@@H]1O[C@]1(CO)[C@@H](O)[C@]1(O)C(=O)C(C)=C[C@H]14)O2,MTT,22.8 µM
Oc1cc(O)c2c(c1)O[C@H](c1cc(O)c(O)c(O)c1)[C@@H](O)C2,-,>80 µg/mL
Cc1ccc(-c2c[nH]c(=S)n2NC(=S)Nc2ccc(Br)cc2)cc1,MTT,117 µM
CCN(/C=C/c1ccc(OC)cc1OC)C(C)=O,MTT,112 µM
NC(=O)c1nn([C@@H]2O[C@H](CO)[C@@H](O)[C@H]2O)cc1N,-,>1840 µM
COc1cc(-c2oc3cc(O)cc(O)c3c(=O)c2O)ccc1O,-,>100 µg/mL
NS(=O)(=O)c1ccc(NC(=O)COc2ccccc2NS(=O)(=O)c2ccc([N+](=O)[O-])cc2)cc1,MTT,209 µM
Nc1ncc2ncn([C@H]3CC[C@@H](CO)O3)c2n1,-,>1000 µM
CC(C)(C)C(=O)c1sc(C(=O)NCc2ccccc2)c(O)c1O,resazurin,25 µM
Cc1ccc(S(=O)(=O)Nc2ccccc2OCC(=O)Nc2ccc(S(N)(=O)=O)cc2C)cc1,MTT,181 µM
CCC(CC)NC(=O)C[C@@H](C(=O)NC[C@@H](O)[C@H](Cc1ccccc1)NC(=O)[C@@H](NC(=O)OCc1ccccc1)C(C)C)C(C)(C)C,-,>1 µM
C=C(C)[C@@]12OC3(/C=C/C=C/CCCCC)O[C@@H]1[C@@H]1[C@@H]4O[C@]4(CO)[C@@H](O)[C@]4(O)C(=O)C(C)=C[C@H]4[C@@]1(O3)[C@H](C)[C@H]2OC(=O)/C=C/c1ccc(O)c(OC)c1,MTT,19.1 µM
S=C(Nc1ccc(Br)cc1)Nn1c(-c2ccc(Br)cc2)c[nH]c1=S,MTT,88.11 µM
O=C(CC1(O)C(=O)Nc2ccc(Br)cc21)c1ccccc1,MTT,157.2 µM
Nc1ncnc2c1ncn2CCOCP(=O)(O)O,-,65 µM
Cc1cccc(C(=O)CC2(O)C(=O)Nc3ccc(Br)cc32)c1,MTT,>400 µM
C=C(C)[C@]12C[C@@H](C)[C@@]34OC(c5ccccc5)(O[C@@H]1[C@@H]3[C@@H]1O[C@]1(CO)[C@@H](O)[C@@]1(O)[C@H]4C[C@H](C)[C@@H]1OC(=O)c1ccccc1)O2,MTT,>200 µM
NC(=O)c1nn([C@@H]2O[C@H](CO)[C@@H](O)[C@H]2O)cc1I,-,8 µM
O=c1c(O[C@@H]2O[C@H](CO)[C@@H](O)[C@H](O)[C@H]2O)c(-c2ccc(O)cc2)oc2cc(O)cc(O)c12,-,100 µg/mL
CC(C)[C@H](NC(=O)OCc1ccccc1)C(=O)N[C@@H](Cc1ccccc1)[C@H](O)CNC(=O)[C@H](CC(=O)NC(C)(C)C)C(C)(C)C,-,>1 µM
NS(=O)(=O)c1ccc(NC(=O)COc2ccc(Cl)cc2NS(=O)(=O)c2ccc(Cl)cc2)cc1,MTT,127 µM
Cc1cc(O)cc(O)c1,MTT,>200 µM
O=c1c(O)c(-c2ccc(O)cc2)oc2cc(O)cc(O)c12,-,10 µg/mL
Cc1cc(C)cc(S(=O)(=O)c2c(C(N)=O)[nH]c3ccc(Cl)cc23)c1,MTT,14 µM
O=C(CC1(O)C(=O)Nc2ccc(Cl)cc21)c1cccc(Br)c1,MTT,147 µM
O=c1[nH]cnc2c1ncn2[C@H]1CC[C@@H](CO)O1,-,>967 µM
Cc1ccccc1NC(=S)Nn1c(-c2ccc(Br)cc2)c[nH]c1=S,MTT,27.14 µM
COc1ccc(S(=O)(=O)Nc2ccccc2OCC(=O)Nc2ccc(S(N)(=O)=O)cc2)cc1,MTT,>407 µM
Oc1cc(O)c2c(c1)O[C@@H](c1ccc(O)c(O)c1)[C@@H](O)C2,-,>100 µg/mL
NC(=O)c1nn([C@@H]2O[C@H](CO)[C@@H](O)[C@H]2O)cc1[N+](=O)[O-],-,12 µM
CCC(CC)NC(=O)C[C@@H](C(=O)NC[C@@H](O)[C@H](Cc1ccccc1)NC(=O)[C@H](CC(N)=O)NC(=O)OCc1ccccc1)C(C)(C)C,-,>1 µM
C[C@@H]1O[C@@H](Oc2c(-c3ccc(O)c(O)c3)oc3cc(O)cc(O)c3c2=O)[C@H](O)[C@H](O)[C@H]1O,-,>100 µg/mL
C=C(C)[C@]12C[C@@H](C)[C@@]34OC(c5ccccc5)(O[C@@H]1[C@@H]3[C@@H]1O[C@]1(CO)[C@@H](O)[C@@]1(O)[C@H]4C[C@H](C)[C@@H]1OC(=O)/C=C/c1ccccc1)O2,MTT,125.4 µM
O=c1c2cccn2c2ccc(Cl)cc2n1CCNC(=S)Nc1ccc(Br)cn1,-,7 µM
C=C(C)[C@]1(O)C[C@@H](C)[C@@]2(O)[C@H]([C@H]1OC(=O)c1ccccc1)[C@@H]1O[C@]1(CO)[C@@H](O)[C@]1(O)C(=O)C(C)=C[C@H]12,MTT,>200 µM
C=C(C)[C@@]12OC3(/C=C/C=C/C=C/CCC)O[C@@H]1[C@@H]1[C@@H]4O[C@]4(CO)[C@@H](O)[C@]4(O)C(=O)C(C)=C[C@H]4[C@@]1(O3)[C@H](C)[C@H]2OC(C)=O,MTT,20.6 µM
C=CCN(/C=C/c1ccccc1C)C(C)=O,MTT,>930 µM
C=C(C)[C@@]12OC3(c4ccccc4)O[C@@H]1[C@@H]1[C@@H]4O[C@]4(CO)[C@@H](O)[C@]4(O)C(=O)C(C)=C[C@H]4[C@@]1(O3)[C@H](C)[C@H]2OC(=O)c1ccccc1,MTT,92.3 µM
O=C(CC1(O)C(=O)Nc2ccc(Cl)cc21)c1cccc(Cl)c1,MTT,>400 µM
Cc1ccccc1NC(=S)Nn1c(-c2ccc(-c3ccccc3)cc2)c[nH]c1=S,MTT,65.78 µM
O=C(CCc1ccc(O)cc1)c1c(O)cc(O)cc1O[C@@H]1O[C@H](CO)[C@@H](O)[C@H](O)[C@H]1O,MTT,>200 µM
O=c1c(O)c(-c2ccc(O)c(O)c2)oc2cc(O)cc(O)c12,-,10 µg/mL
Cc1ccc(S(=O)(=O)Nc2ccccc2OCC(=O)Nc2ccc(S(N)(=O)=O)cc2)cc1,MTT,193 µM
O=c1c2cccn2c2ccccc2n1CCNC(=S)Nc1ccc(Br)cn1,-,17 µM
O=C(CC1(O)C(=O)Nc2ccc(Cl)cc21)c1ccccc1Cl,MTT,>400 µM
O=C(O[C@@H]1Cc2c(O)cc(O)cc2O[C@@H]1c1ccc(O)c(O)c1)c1cc(O)c(O)c(O)c1,-,>100 µg/mL
CC(C)=CCC/C(C)=C/CC/C(C)=C/CC/C(C)=C/Cc1cc(O)cc2c1OC(=O)C2,MTT,5.12 µM
CC(C)Oc1ccc(Cc2ccccc2)cc1C(=O)CC(=O)C(=O)O,resazurin,50 µM
CC(C)[C@H](NC(=O)c1ccc2ccccc2n1)C(=O)N[C@@H](Cc1ccccc1)[C@H](O)CN1CC[C@@H](OCc2ccncc2)C[C@H]1C(=O)NC(C)(C)C,-,>1 µM
O=C(CC1(O)C(=O)Nc2ccccc21)c1ccccc1,MTT,>400 µM
Nc1ncnc2c1ncn2[C@H]1CC[C@@H](CO)O1,-,>1000 µM
COc1cc(OC2O[C@H](CO)[C@@H](O)[C@H](O)[C@H]2O)cc(OC)c1OC,MTT,>200 µM
C=C(C)[C@@]1(OC(C)=O)[C@H](OC(C)=O)[C@@H]2[C@H](OC(C)=O)[C@@]3(C)O[C@@]4([C@@H]3O)[C@@H](OC(=O)c3ccccc3)[C@@H](C)C[C@H]4[C@@]2(O)[C@H](C)[C@@H]1OC(=O)c1ccccc1,MTT,>200 µM
COc1ccccc1C(=O)CC1(O)C(=O)Nc2ccccc21,MTT,>400 µM

The last 9 rows once more:

structure,method,value
O=C(O[C@@H]1Cc2c(O)cc(O)cc2O[C@@H]1c1ccc(O)c(O)c1)c1cc(O)c(O)c(O)c1,-,>100 µg/mL
CC(C)=CCC/C(C)=C/CC/C(C)=C/CC/C(C)=C/Cc1cc(O)cc2c1OC(=O)C2,MTT,5.12 µM
CC(C)Oc1ccc(Cc2ccccc2)cc1C(=O)CC(=O)C(=O)O,resazurin,50 µM
CC(C)[C@H](NC(=O)c1ccc2ccccc2n1)C(=O)N[C@@H](Cc1ccccc1)[C@H](O)CN1CC[C@@H](OCc2ccncc2)C[C@H]1C(=O)NC(C)(C)C,-,>1 µM
O=C(CC1(O)C(=O)Nc2ccccc21)c1ccccc1,MTT,>400 µM
Nc1ncnc2c1ncn2[C@H]1CC[C@@H](CO)O1,-,>1000 µM
COc1cc(OC2O[C@H](CO)[C@@H](O)[C@H](O)[C@H]2O)cc(OC)c1OC,MTT,>200 µM
C=C(C)[C@@]1(OC(C)=O)[C@H](OC(C)=O)[C@@H]2[C@H](OC(C)=O)[C@@]3(C)O[C@@]4([C@@H]3O)[C@@H](OC(=O)c3ccccc3)[C@@H](C)C[C@H]4[C@@]2(O)[C@H](C)[C@@H]1OC(=O)c1ccccc1,MTT,>200 µM
COc1ccccc1C(=O)CC1(O)C(=O)Nc2ccccc21,MTT,>400 µM